First the molecules themselves.
B1: BD55-6666 (protein)
chain 1: QVQLQESGPGLVKPSETLSLTCTVSGGSISTHYWSWIRQPPGKGLEWIGFFYTSETTNYNPSLKSRVTISVDTSKNRFSLKLTSVTAADTAVYYCARHYDYVGGSHLPGTYQYYGMDVWGQGTTVTVSS
chain 2: NFMLTQPHSVSGSPGKTVTISCTANSGSIATNYVQWYQQRPGSAPTTVIYEDYHRPSGVPDRFSGSIDSSSNSASLTISGLKTEDEADYYCQSYDSTNHGVIFGGGTKLTVL
B2: BD55-6652 (protein)
chain 1: QVQLVQSGAEVKKPGSSLKVSCRVSGGTFSNRGISWVRQAPGQGLEWIGRIIPILNKAFYTEKFQGRLTVTADTSTNTAYMELNGLRSEDTAVYYCARGGYIIRSFDPWGQGTLVIVSS
chain 2: IVLTQSPLSLPVTPGEPASISCRSSQSLLHSNGNNYLDWYLQKPGQSPQLLIYLGSNRASGVPDRFSGSGSGTDFTLKISRVEADDVGVYYCMQALQAETFGQGTKVEI
B3: BD55-6654 (protein)
chain 1: EVRLVESGGGLVKPGGSLRLSCAASGFIFDTYNMNWVRQAPGKGLEWVSSITPTSSYIYYADSVKGRFTISRDNAKNSLYLQMNSLRAEDTAVYYCARDGVPFWSNPNYYYYYMDVWGKGTTVSVSS
chain 2: EIVLTQSPGTLSLSPGERATLSCRASQSVYNSYLAWYQQKPGQAPRLLIYGASSRATGIPDRFSGSGSGTDFTLTISRLEPEDFALYYCQQYASAPRTFGQGTKVEIK
B4: BD55-6667 (protein)
chain 1: QVQLVESGGGVVQPGRSLRLACAASGFTFYSYTMHWVRQAPGKGLEWVAVISYDGNKKYYADSVKGRFTISRDNSKNTLYVQMSSLRAEDTAVYFCARELGFCGGTTCYTNDYWGQGTQVTVSS
chain 2: DIQMTQSPSSLSASVGDRVTITCRASQTISNYLNWYQQKPGKAPKLLIYAASSLQNGVPSRFSGSGSGTDFTLTISSLQLEDFATYYCQQSNSIPRTFGQGTKLEIK
B5: BD55-6644 (protein)
chain 1: QVQLVQSGGGVVQPGRSLRLSCAASGFTFTRDPMHWVRQTPGKGLEWLTHISHDGSQKSYADSVRGRFIISRDNSKNTLFLHMNSLRVEDTAVYYCARPLWFGDLGGMFDSWGQGTLVTVSS
chain 2: EIVMTQSPATLSVSPGERATLSCRASQSVSANLAWYQQKPGQPPRLLLYGASTRAAGFPARFSGSGSGTEFTLTISRLQSEDFAVYYCQQYYDWPRTFGQGTKVEIK
B6: BD55-6659 (protein)
chain 1: VPLVQSGTVVKKPGESVRISCKGSGYSFTTHWIAWVRQMPGKGLEWMGVISPGDSDTRYSPSFQGQVTISADKSVSTAYLQWDSLKASDTAMYYCARLLCGGDCPLDYWGQGTLVTVSS
chain 2: DIQMTQSPSTLSASVGDRVTITCRASQSISKWVAWYQQKPGKAPNLLIYDGSSLESAVPSRFSGSGSGTEFTLTISSLQPDDFATYYCQQYNSYPRTFGQGTKVEVK
B7: BD55-1294 (protein)
chain 1: QLHLQESGPGLVKPSETLSLTCTVSGGSIFSSTYYWGWIRQTPGKGLEWIGSFYNGGSTYYNPSLESRVTISEDTSKNQFSLKLSSVTAADTAVYYCARDLSETASYHNWFDPWGQGTLVTVSS
chain 2: DIQLTQSPSFLSASVGDRITITCRASQAISNYLAWYQQKPGKAPKLLIYGASTLHSGVPSRFSGSHSGSEFTLTISGLQPEDFATYYCQQLNSFGPGTKVDIK
B8: BD55-6648 (protein)
chain 1: EVQLLESGGGLIQPGGSLRLSCVASGFTFSNYAMSWVRQAPGKGLEWVSSISDSDETTHLADSVKGRFTVSRDASKNTLYLHMNSLRGEDTAAYYCAGGWIYNNVLTGFFSFYYGMDVWGQGTTVTVSS
chain 2: DIVMTQTPLSLPVTPGEPASISCRSSQSLLDSDGGNTYLDWYLQKPGQSPQLLIYMVSYRASGVPDRFSGSGSDTDFTLEISRVEAEDVGVYYCMQRKEFPLTFGGGTKVEIK
B9: BD55-1284 (protein)
chain 1: VQLVQSGAEVKKPGESLRISCKGSGYRFTSNWINWVRQTPEKGLEWMGKIDPSDSYTKYSPSFQGHVTISVDKSSSTAYLQWTSLKVSDTAVYYCARQICGGDCRDDYWGQGTQVIVSS
chain 2: DIQMTQSPSSLSASVGDRVTITCQASQDVREFLNWYQQKPGKAPNLLIYDTSNLETGVPSRFSGSGSGTDFTFTITNLQAEDIATYYCQQYSHFPVTFGQGTRLDFK
B10: BD55-6668 (protein)
chain 1: QLILQESGPGLVKPSGTLSLTCTVSGGSVSSPSFYGGWLRQPPGKGLQWMAIIDYSGITYYNPSLKSRVTVSVDTSRNRFSLKLSTVAATDTAVYYCARPRLISGFSGDWQGPTYYFDSWGQGTLVAVSS
chain 2: SNVLTQPPSVSVAPGETAWITCGGSNIGTTSVHWYQQKPGQAPVVVVFDDSGRPSAIPERFSGSHSGNSATLTISRVEAGDEAEYYCQVWDTSRDLALFGGGTKLTVL
B11: BD55-6660 (protein)
chain 1: QVQLVQSGAEVKKPGASVKVSCKASGYIFTSYYMHWVRQAPGQGLEWMGTINPSGGSANFAQKFQGRVTMTRDTSASTVYLELSSLRSEDTAVYYCARDGGSAASHYYYYMDVWGEGTTVTVSS
chain 2: DIQMTQSPSSLSASVGDRVTITCRASQSISNFLNWYQQKPGKAPKVLIYAASTLQSGVPSRFSGSGSGTDFTLTINSLRPEDFATYYCQQSYTTPTWTFGQGTKVEVK
B12: BD55-6653 (protein)
chain 1: EVQLVESGGGLVQPGRSLRLSCTASGFIFSDHGINWVRQAPGKGLEWVGFIRRKAYGGTTEYAASVKGRITISRDDSKSIAYLQMNSLKTEDTGVYYCTRPPIVVADDYYFDYWGQGTLVTVSS
chain 2: SYELTQPPSVSVSPGQTARITCSGNAFPQQYAYWYQQKPGRAPVLVIYKDKERPSGIPERFSGSSSGTTVTLTIGGVQAEDEADYYCQSADSRAVVFGGGTKLTVL

Human monoclonal antibodies against the spike receptor-binding domain (heavy:light variable regions). IC50 against pseudoviruses bearing the spike of naturally observed variants; lower = stronger; >10 µg/ml means not reached at the top dose. No active / inactive call. The stated detection limit is 0.0005 µg/ml; values near or below 0.001 µg/ml lie at the floor of the assay.

The first assay addresses SARS-CoV-2 Omicron BA.1 spike pseudovirus. Nature of the assay: pseudovirus neutralization IC50; higher = weaker neutralization. As for the experimental part:
(§1)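 Single-round VSV luciferase pseudovirus mixed with antibody dilutions for 1 h and put on Huh-7 cells for about a day; IC50 from the dose curve.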
Take B1: the “pseudovirus neutralization IC50” value is above 10 µg/mL.

For the molecule B2, the “pseudovirus neutralization IC50” value was above 10 µg/mL.

With B3, the “pseudovirus neutralization IC50” value is above 10 µg/mL.

As to B4, the “pseudovirus neutralization IC50” value was above 10 µg/mL.

Regarding B5, the “pseudovirus neutralization IC50” value was above 10 µg/mL.

With B6, the “pseudovirus neutralization IC50” value worked out at 4.36 µg/mL.

With B7, the “pseudovirus neutralization IC50” value was above 10 µg/mL.

Regarding B8, the “pseudovirus neutralization IC50” value was above 10 µg/mL.

B9: the “pseudovirus neutralization IC50” value stood at 1.75 µg/mL.

Take B10: the “pseudovirus neutralization IC50” value is above 10 µg/mL.

B11: the “pseudovirus neutralization IC50” value is above 10 µg/mL.

Regarding B12, the “pseudovirus neutralization IC50” value was above 10 µg/mL.

Another assay deals with SARS-CoV-2 Omicron BA.2 spike pseudovirus. Described as above. As for the experimental part: as §1
Take B1: the “pseudovirus neutralization IC50” value is above 10 µg/mL.

As for B2, the “pseudovirus neutralization IC50” value was above 10 µg/mL.

With B3, the “pseudovirus neutralization IC50” value is above 10 µg/mL.

For the molecule B4, the “pseudovirus neutralization IC50” value is above 10 µg/mL.

For B5, the “pseudovirus neutralization IC50” value was above 10 µg/mL.

B6: the “pseudovirus neutralization IC50” value was determined as 7.66 µg/mL.

Consider B7, for which the “pseudovirus neutralization IC50” value is above 10 µg/mL.

For the molecule B8, the “pseudovirus neutralization IC50” value was above 10 µg/mL.

As to B9, the “pseudovirus neutralization IC50” value came out at 1.64 µg/mL.

Regarding B10, the “pseudovirus neutralization IC50” value is above 10 µg/mL.

Turning to B11, the “pseudovirus neutralization IC50” value is above 10 µg/mL.

On to B12, for which the “pseudovirus neutralization IC50” value is above 10 µg/mL.

In the next assay the target is SARS-CoV-2 Omicron BA.2.75 spike pseudovirus. The assay is described as above. As for the experimental part:
as §1
As for B1, the “pseudovirus neutralization IC50” value was above 10 µg/mL.

In the case of B2, the “pseudovirus neutralization IC50” value is above 10 µg/mL.

In the case of B3, the “pseudovirus neutralization IC50” value is above 10 µg/mL.

Consider B4, for which the “pseudovirus neutralization IC50” value is above 10 µg/mL.

Regarding B5, the “pseudovirus neutralization IC50” value was above 10 µg/mL.

As for B6, the “pseudovirus neutralization IC50” value amounted to 6.47 µg/mL.

With B7, the “pseudovirus neutralization IC50” value is above 10 µg/mL.

Regarding B8, the “pseudovirus neutralization IC50” value was above 10 µg/mL.

For the molecule B9, the “pseudovirus neutralization IC50” value was determined as 1.86 µg/mL.

For the molecule B10, the “pseudovirus neutralization IC50” value is above 10 µg/mL.

For the molecule B11, the “pseudovirus neutralization IC50” value was above 10 µg/mL.

With B12, the “pseudovirus neutralization IC50” value was above 10 µg/mL.

In the next assay the target is SARS-CoV-2 Omicron BA.5 spike pseudovirus. The description is as above. As for the experimental part: as §1
Regarding B1, the “pseudovirus neutralization IC50” value is above 10 µg/mL.

On to B2, for which the “pseudovirus neutralization IC50” value is above 10 µg/mL.

Turning to B3, the “pseudovirus neutralization IC50” value was above 10 µg/mL.

With B4, the “pseudovirus neutralization IC50” value was above 10 µg/mL.

For B5, the “pseudovirus neutralization IC50” value is above 10 µg/mL.

As for B6, the “pseudovirus neutralization IC50” value is above 10 µg/mL.

Consider B7, for which the “pseudovirus neutralization IC50” value was above 10 µg/mL.

Consider B8, for which the “pseudovirus neutralization IC50” value is above 10 µg/mL.

As to B9, the “pseudovirus neutralization IC50” value was determined as 4.69 µg/mL.

As to B10, the “pseudovirus neutralization IC50” value was above 10 µg/mL.

Regarding B11, the “pseudovirus neutralization IC50” value was above 10 µg/mL.

Turning to B12, the “pseudovirus neutralization IC50” value is above 10 µg/mL.

The next assay deals with SARS-CoV-2 Omicron BQ.1.1 spike pseudovirus. The assay is described as above. As for the experimental part: as §1
Turning to B1, the “pseudovirus neutralization IC50” value is above 10 µg/mL.

As for B2, the “pseudovirus neutralization IC50” value was above 10 µg/mL.

Take B3: the “pseudovirus neutralization IC50” value was above 10 µg/mL.

As for B4, the “pseudovirus neutralization IC50” value is above 10 µg/mL.

For B5, the “pseudovirus neutralization IC50” value was above 10 µg/mL.

As for B6, the “pseudovirus neutralization IC50” value is above 10 µg/mL.

As for B7, the “pseudovirus neutralization IC50” value was above 10 µg/mL.

As for B8, the “pseudovirus neutralization IC50” value is above 10 µg/mL.

As for B9, the “pseudovirus neutralization IC50” value was 3.8 µg/mL.

Turning to B10, the “pseudovirus neutralization IC50” value is above 10 µg/mL.

On to B11, for which the “pseudovirus neutralization IC50” value is above 10 µg/mL.

Consider B12, for which the “pseudovirus neutralization IC50” value was above 10 µg/mL.

For a further assay, the target named is SARS-CoV-2 Omicron XBB spike pseudovirus. Described as above. As for the experimental part: as §1
Consider B1, for which the “pseudovirus neutralization IC50” value is above 10 µg/mL.

On to B2, for which the “pseudovirus neutralization IC50” value is above 10 µg/mL.

As for B3, the “pseudovirus neutralization IC50” value was above 10 µg/mL.

B4: the “pseudovirus neutralization IC50” value was above 10 µg/mL.

With B5, the “pseudovirus neutralization IC50” value is above 10 µg/mL.

With B6, the “pseudovirus neutralization IC50” value was above 10 µg/mL.

For the molecule B7, the “pseudovirus neutralization IC50” value was above 10 µg/mL.

B8: the “pseudovirus neutralization IC50” value was above 10 µg/mL.

With B9, the “pseudovirus neutralization IC50” value was determined as 0.647 µg/mL.

For B10, the “pseudovirus neutralization IC50” value was above 10 µg/mL.

Consider B11, for which the “pseudovirus neutralization IC50” value is above 10 µg/mL.

On to B12, for which the “pseudovirus neutralization IC50” value was above 10 µg/mL.

In a further assay the target is SARS-CoV-2 early D614G spike pseudovirus. Described as above. As for the experimental part:
as §1
On to B1, for which the “pseudovirus neutralization IC50” value was above 10 µg/mL.

Take B2: the “pseudovirus neutralization IC50” value is above 10 µg/mL.

In the case of B3, the “pseudovirus neutralization IC50” value was above 10 µg/mL.

For the molecule B4, the “pseudovirus neutralization IC50” value was determined as 0.992 µg/mL.

With B5, the “pseudovirus neutralization IC50” value is above 10 µg/mL.

For the molecule B6, the “pseudovirus neutralization IC50” value was 5.23 µg/mL.

In the case of B7, the “pseudovirus neutralization IC50” value was determined as 0.886 µg/mL.

On to B8, for which the “pseudovirus neutralization IC50” value was above 10 µg/mL.

Turning to B9, the “pseudovirus neutralization IC50” value amounted to 1.46 µg/mL.

As for B10, the “pseudovirus neutralization IC50” value was 2.37 µg/mL.

With B11, the “pseudovirus neutralization IC50” value is above 10 µg/mL.

Take B12: the “pseudovirus neutralization IC50” value was found to be 9.67 µg/mL.

Values taken from the supplement of paper PMC9931576.
